Measurements published in PubChem BioAssay.
The list shows a part of the results, in another mix than the full data. This is one part of the list. The source made the active and inactive calls.

Sequences of proteins named here, by UniProt entry; tags and fusion partners are left off. A change or cut given only in a name is not applied to a line headed by its entry.
UniProt P60615, whole entry, looked up: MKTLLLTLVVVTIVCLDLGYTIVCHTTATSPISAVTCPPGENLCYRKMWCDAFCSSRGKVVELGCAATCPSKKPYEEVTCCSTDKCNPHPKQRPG
UniProt Q08210: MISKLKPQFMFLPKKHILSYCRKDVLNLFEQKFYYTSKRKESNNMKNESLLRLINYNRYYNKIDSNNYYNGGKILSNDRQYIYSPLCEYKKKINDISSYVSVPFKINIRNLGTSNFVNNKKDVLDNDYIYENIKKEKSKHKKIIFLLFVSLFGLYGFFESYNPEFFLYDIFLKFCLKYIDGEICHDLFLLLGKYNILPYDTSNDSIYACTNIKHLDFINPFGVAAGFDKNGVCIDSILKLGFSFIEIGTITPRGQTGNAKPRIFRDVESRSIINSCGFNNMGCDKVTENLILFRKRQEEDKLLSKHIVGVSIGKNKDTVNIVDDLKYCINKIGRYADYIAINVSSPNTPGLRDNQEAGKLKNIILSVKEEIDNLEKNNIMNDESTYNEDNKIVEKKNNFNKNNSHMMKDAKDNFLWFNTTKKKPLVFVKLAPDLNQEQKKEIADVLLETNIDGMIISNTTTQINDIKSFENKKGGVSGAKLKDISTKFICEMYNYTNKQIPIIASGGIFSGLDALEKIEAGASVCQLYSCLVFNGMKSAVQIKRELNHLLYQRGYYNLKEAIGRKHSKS

Columns and labels:
[1] = optical density change of DRC41 E. coli – strain DRC41, OD650, 24 h, E. coli filamentation project, primary screen (AID 1093);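 note: MC1000 strain lacking acrAB efflux and sulA so SOS filamentation is blocked; test concentration not given here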; settings: E. coli DRC41 growth, higher = more signal, called active from +8 up or from −8 down
[2] = system: Plasmodium falciparum Sir2 (PF13_0152, Sir2A); assay: Plasmodium falciparum Sir2A binding compounds – biochemical, small-molecule microarray, 635 nm fluorescence, primary screen (AID 1098); settings: fluorescence 635 nm, higher = more signal;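 note: score merges spot fluorescence intensity with its signal-to-noise ratio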
[3] = system: Human papillomavirus type 1a protein E7 (residues 44-93); assay: small molecules binding HPV E7 44-93 – biochemical, small-molecule microarray, residues 44-93, 635 nm fluorescence, primary screen (AID 1108); settings: fluorescence 635 nm, higher = more signal;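 note: E7 fragment applied at 1 µg/mL in TBST for 1 h at 4 C; score combines spot fluorescence with its signal to noise ratio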
[4] = target: Alpha-bungarotoxin (Bungarus multicinctus) (UniProt P60615); assay: compounds binding labelled alpha-BTX control protein – biochemical, small-molecule microarray, Alexa647 label, 635/667 nm fluorescence, artefact control for SMM control protein annotation, profiling panel (AID 1117); settings: alpha-BTX-A647 binding fluorescence, higher = more signal
[5] = system: Human papillomavirus type 1a E7 protein (residues 1-88); assay: HPV1a E7 small-molecule binders, primary screen, biochemical, small-molecule microarray, residues 1-88, 635 nm (AID 1129); settings: small-molecule microarray binding, fluorescence 635 nm; higher = more signal
[6] = optical density shifts of acrAB sulA E. coli – strain DRC41, OD650, 48 h, E. coli filamentation inducer project, primary screen (AID 1152); settings: higher = more signal, called active from +8 up or from −8 down;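 note: E. coli MC1000 strain DRC41 lacking acrAB efflux pump and sulA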
[7] = target: Dihydroorotate dehydrogenase (quinone), mitochondrial (Plasmodium falciparum (isolate 3D7)) (UniProt Q08210); assay: inhibition of P. falciparum DHODH – biochemical, C-terminal His tag, absorbance 600 nm, primary screen (AID 1175); settings: PfDHODH enzyme, DCIP absorbance 600 nm; higher = more signal, called active from +8 up or from −8 down;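 note: recombinant parasite enzyme with a five histidine tag at its C terminus; test concentration not given here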
[8] = growth of efflux-deficient E. coli DRC39 – strain DRC39, OD650, 24 h, E. coli filamentation inducers, primary screen (AID 1178);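 note: growth measured as culture turbidity by optical density at 650 nm; test concentration not given here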; settings: E. coli DRC39 acrAB, higher = more signal, called active from +8 up or from −8 down
[9] = growth of efflux-deficient E. coli DRC39 – strain DRC39, OD650, 48 h, E. coli filamentation inducers, primary screen (AID 1179);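 note: screen aims at cell division blockers that make cells filament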; settings: E. coli DRC39 delta-acrAB growth, higher = more signal, called active from +8 up or from −8 down
[10] = blood-stage malaria parasite viability loss – strain 3D7, DAPI fluorescence, 100 nL, primary screen (AID 1184);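 note: parasites grown inside human red blood cells in medium with human serum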; settings: P. falciparum 3D7 growth, 3 d, higher = more signal

SMILES | z-score [1] | composite z-score [2] | composite z-score [3] | composite z-score [4] | composite z-score [5] | z-score [6] | composite z-score [7] | z-score [8] | z-score [9] | z-score [10]
CC1C=C(CCCO)C/C(=N/P(=O)(Oc2ccccc2)Oc2ccccc2)N1Cc1cccc(OC(F)(F)F)c1 (stereo not given) | inactive: -0.051 | -0.114 | 1.12 | 0.168 | 1.07 | inactive: -0.713 | inactive: 0.292 | inactive: -1.08 | inactive: -0.964 | -1.79
COP(=O)(/N=C1/CC(CCCO)=CC(c2ccc(CN3CCCC3)cc2)N1C)OC (stereo not given) | inactive: 0.975 | -0.333 | -0.153 | 0.259 | 0.353 | inactive: 1.53 | inactive: -5.91 | inactive: 0.703 | inactive: 0.544 | -0.0354
COP(=O)(/N=C1/CC(CCCO)=CC(C2CC2)N1Cc1sc2ccccc2c1Cl)OC (stereo not given) | inactive: 0.771 | 0.936 | 1.22 | 2.27 | 1.06 | inactive: -0.104 | inactive: -2.27 | inactive: 1.84 | inactive: 0.708 | -2.97
COP(=O)(/N=C1/CC(CCCO)=CC(c2ccc(CN3CCCC3)cc2)N1Cc1cc2c(cc1Br)OCO2)OC (stereo not given) | inactive: 1.72 | 0.0185 | 0.268 | 0.65 | 0.224 | inactive: 2.17 | inactive: -6.31 | inactive: 2.47 | inactive: 1.76 | -2.14
O=P(/N=C1/CC(c2ccc(CO)cc2)=CC(C2CC2)N1Cc1sc2ccccc2c1Cl)(Oc1ccccc1)Oc1ccccc1 (stereo not given) | inactive: -0.708 | 1.19 | 1.42 | 1.82 | 1.23 | inactive: -1.75 | inactive: -0.493 | inactive: -1.96 | inactive: -0.954 | -3.15
CN1/C(=N\P(=O)(Oc2ccccc2)Oc2ccccc2)CC(c2ccc(CO)cc2)=CC1c1cccs1 (stereo not given) | inactive: -0.0869 | 0.684 | -0.717 | 1.09 | -0.538 | inactive: 2.08 | inactive: 0.137 | inactive: 1.1 | inactive: 0.333 | -1.42
CN1/C(=N\P(=O)(Oc2ccccc2)Oc2ccccc2)CC(CCCO)=CC1C1CC1 (stereo not given) | inactive: -0.283 | -0.0209 | 0.0939 | 0.46 | 0.198 | inactive: 0.593 | inactive: -5.86 | inactive: 0.578 | inactive: 1.2 | 0.0918
COP(=O)(/N=C1/CC(c2ccc(CO)cc2)=CC(C2CC2)N1Cc1sc2ccccc2c1Cl)OC (stereo not given) | active: -14.2 | 1.13 | -0.0532 | 2.65 | 0.907 | active: -10.5 | inactive: -4.03 | active: -21 | active: -18.8 | -2.89
O=P(/N=C1/CC(CCCO)=CC(C2CC2)N1Cc1cccc(OC(F)(F)F)c1)(Oc1ccccc1)Oc1ccccc1 (stereo not given) | inactive: 0.512 | 0.0453 | 0.999 | -0.219 | 0.625 | inactive: 0.175 | inactive: -0.0265 | inactive: 0.342 | inactive: 0.287 | -2.72
O=P(/N=C1/CC(c2ccc(CO)cc2)=CC(c2cccs2)N1Cc1cccc(OC(F)(F)F)c1)(Oc1ccccc1)Oc1ccccc1 (stereo not given) | inactive: -1.04 | 1.19 | 1.24 | 1.77 | 1.27 | inactive: -3.98 | inactive: -0.341 | inactive: -3.48 | inactive: -3.74 | -2.17
O=P(/N=C1/CC(CCCO)=CC(C2CC2)N1Cc1sc2ccccc2c1Cl)(Oc1ccccc1)Oc1ccccc1 (stereo not given) | inactive: -0.0549 | 0.549 | 1.43 | 1.1 | 1.17 | inactive: -0.666 | inactive: -2.31 | inactive: 0.452 | inactive: 0.0776 | -1.93
COP(=O)(/N=C1/CC(CCCO)=CC(c2ccc(CN3CCCC3)cc2)N1Cc1sc2ccccc2c1Cl)OC (stereo not given) | inactive: 0.0218 | 1.35 | 0.0634 | 0.404 | 0.008 | inactive: -0.0949 | active: -18.6 | inactive: 1.54 | inactive: 1.04 | -2.9
COP(=O)(/N=C1/CC(CCCO)=CC(c2cccs2)N1C)OC (stereo not given) | inactive: 1.32 | 1.03 | 0.203 | 1.81 | 0.643 | inactive: 1.71 | active: -19.2 | inactive: 2.26 | inactive: 1.58 | -1.88
COP(=O)(/N=C1/CC(c2ccc(CO)cc2)=CC(c2cccs2)N1C)OC (stereo not given) | inactive: 0.639 | -0.0312 | 0.17 | 0.675 | -0.0043 | inactive: 0.852 | inactive: -6.35 | inactive: 0.629 | inactive: 0.556 | -2.03
O=P(/N=C1/CC(CCCO)=CC(c2ccc(CN3CCCC3)cc2)N1Cc1sc2ccccc2c1Cl)(Oc1ccccc1)Oc1ccccc1 (stereo not given) | inactive: -0.269 | -0.178 | 0.351 | 1.08 | 0.494 | inactive: -0.785 | inactive: -0.241 | inactive: -0.0581 | inactive: -0.0524 | -3.08
O=P(/N=C1/CC(CCCO)=CC(c2ccc(CN3CCCC3)cc2)N1Cc1cc2c(cc1Br)OCO2)(Oc1ccccc1)Oc1ccccc1 (stereo not given) | inactive: 0.56 | 1.96 | 0.916 | -0.26 | 0.402 | inactive: 0.435 | inactive: -0.448 | inactive: 0.142 | inactive: 0.0621 | -1.64
O=P(/N=C1/CC(CCCO)=CC(c2cccs2)N1Cc1cc2c(cc1Br)OCO2)(Oc1ccccc1)Oc1ccccc1 (stereo not given) | inactive: -1.08 | 1.58 | 1.33 | 1.27 | 1.22 | inactive: -1.17 | active: -9.66 | inactive: -0.264 | inactive: -0.504 | -1.12
CN1/C(=N\P(=O)(Oc2ccccc2)Oc2ccccc2)CC(c2ccc(CO)cc2)=CC1C1CC1 (stereo not given) | inactive: 0.0039 | 1.3 | 0.355 | 2.37 | 0.858 | inactive: 2.01 | inactive: -7.86 | inactive: 0.744 | inactive: 0.607 | -0.378
O=P(/N=C1/CC(CCCO)=CC(C2CC2)N1Cc1cc2c(cc1Br)OCO2)(Oc1ccccc1)Oc1ccccc1 (stereo not given) | inactive: -0.041 | 1.29 | 1.04 | 0.487 | 0.732 | inactive: -0.318 | inactive: -1.09 | inactive: 0.531 | inactive: 0.358 | -2.21
CN1/C(=N\P(=O)(Oc2ccccc2)Oc2ccccc2)CC(CCCO)=CC1c1ccc(CN2CCCC2)cc1 (stereo not given) | inactive: 0.641 | 0.966 | 1.26 | 0.734 | 1.13 | inactive: -0.0485 | inactive: -4.99 | inactive: 0.0412 | inactive: 0.0535 | -0.939
COP(=O)(/N=C1/CC(c2ccc(CO)cc2)=CC(C2CC2)N1Cc1cc2c(cc1Br)OCO2)OC (stereo not given) | inactive: 1.31 | 0.414 | 0.711 | 1.12 | 0.544 | inactive: -0.773 | inactive: -4.15 | inactive: 0.468 | inactive: -1.13 | -2.89
O=P(/N=C1/CC(c2ccc(CO)cc2)=CC(C2CC2)N1Cc1cc2c(cc1Br)OCO2)(Oc1ccccc1)Oc1ccccc1 (stereo not given) | inactive: -0.213 | 1.53 | 1.08 | 1.98 | 1.25 | inactive: -2.7 | inactive: -0.712 | inactive: 0.455 | inactive: -0.318 | -1.95
COP(=O)(/N=C1/CC(CCCO)=CC(C2CC2)N1C)OC (stereo not given) | inactive: 1.02 | 0.859 | 0.345 | 0.654 | 0.358 | inactive: 1.44 | inactive: -4.87 | inactive: 0.362 | inactive: 0.283 | 0.101
COP(=O)(/N=C1/CC(c2ccc(CO)cc2)=CC(C2CC2)N1C)OC (stereo not given) | inactive: 1.54 | 1.35 | 0.104 | 0.664 | 0.292 | inactive: 2.27 | inactive: -5.92 | inactive: 1.96 | inactive: 1.77 | -1.33
COP(=O)(/N=C1/CC(CCCO)=CC(C)N1Cc1cccc(OC(F)(F)F)c1)OC (stereo not given) | inactive: 1.05 | 0.215 | -0.088 | 0.637 | 0.642 | inactive: 1.38 | inactive: -3.86 | inactive: 2.65 | inactive: 1.59 | -1.35
CN1/C(=N\P(=O)(Oc2ccccc2)Oc2ccccc2)CC(CCCO)=CC1c1cccs1 (stereo not given) | inactive: 0.514 | 0.639 | 0.557 | 0.922 | 0.377 | inactive: -0.0231 | inactive: -0.173 | inactive: -0.775 | inactive: -0.488 | -1.72
COP(=O)(/N=C1/CC(CCCO)=CC(C2CC2)N1Cc1cccc(OC(F)(F)F)c1)OC (stereo not given) | inactive: 0.371 | -0.111 | -0.0615 | 0.287 | -0.227 | inactive: 0.59 | inactive: -5.32 | inactive: 1.21 | inactive: 0.832 | -2.42
O=P(/N=C1/CC(CCCO)=CC(c2cccs2)N1Cc1cccc(OC(F)(F)F)c1)(Oc1ccccc1)Oc1ccccc1 (stereo not given) | inactive: -0.199 | 0.993 | 1.2 | 1.49 | 1.1 | inactive: -0.0788 | inactive: -3.82 | inactive: 1.29 | inactive: 0.309 | -1.4
COP(=O)(/N=C1/CC(CCCO)=CC(C2CC2)N1Cc1cc2c(cc1Br)OCO2)OC (stereo not given) | inactive: 0.435 | 0.399 | 0.23 | 0.785 | 0.702 | inactive: 0.766 | inactive: -2.53 | inactive: 1.53 | inactive: 1.37 | -1.85
COP(=O)(/N=C1/CC(CCCO)=CC(c2ccc(CN3CCCC3)cc2)N1Cc1cccc(OC(F)(F)F)c1)OC (stereo not given) | inactive: 0.454 | 1.13 | 0.297 | 1.51 | 0.473 | inactive: 0.457 | inactive: -6.13 | inactive: 0.822 | inactive: 0.427 | -2.92
